Laboratory results: patent US8753570B2, “Structure, synthesis, and applications for oligo phenylene ethynylenes” (STC.UNM, priority 2008, dated 2014)

Experiments:
Assay type in all cases: binding
[1] = Self-assembly / complex formation on carboxymethylcellulose (absorption, fluorescence); details: for change of fluorescence quantum efficiency of oligomer:CMC complex: CMC (DS=0.7) added to aqueous solution, oligomer ˜15 mM as printed; for increase in fluorescence upon addition of CMC / changes in absorption and fluorescence when CMC is added: aqueous solution; for increase in fluorescence upon addition of CMC: [N-OPE]=1.5×10^−5 M; for changes in absorption and fluorescence when CMC is added: near neutral pH
From the text: N-OPE:CMC complexes can be formed by adding small aliquots of CMC to aqueous solutions containing the N-OPE compound. […] [N-OPE-1]=1.5×10^−5M. […] [N-OPE-2]=1.5×10^−5 and [CMC]=0-4.2×10^−5M. Both excitation and emission slits are 2.5 nm. Excitation wavelength for N-OPE-1 is 355 nm and for N-OPE-2 is 375 nm. For both N-OPEs there are several isosbestic points in the absorption spectra as the two bands in the absorption for water alone are replaced by a spectrum of the N-OPE:CMC having two bands at longer wavelength. For both N-OPEs the fluorescence also undergoes a red shift and increase in intensity as aliquots of CMC are added, finally leveling off at moderate concentrations (greater than 1 mM) of CMC. […] The spectral shifts seem reasonable for a linear dimer; we note that the absorption spectrum of N-OPE-1:CMC is slightly red-shifted compared to N-OPE-2 in water alone. Comparing the estimated length of the linear N-OPE “rigid rod” the “conjugation length” of a linear N-OPE-1 dimer should be slightly longer than that of N-OPE-2. The spectral shifts are also consistent with “planarization” of the chromophores for a monomer assembling on the scaffold.
The N-OPE-CMC complexes can also be generated by addition of small aliquots of the N-OPE to a fixed concentration of CMC. When this was done with N-OPE-1, the very lowest concentrations of N-OPE-1 produced absorption indicative of a mixture of monomer and complex; as the (N-OPE-1) increased the spectra indicated only the complex was being formed on the CMC until a limiting ratio of (N-OPE-1):(moles of CMC polymer repeat units) (CMCPRU)=18:50 is reached. […] Here again as additional N-OPE-2 is added only the monomer spectrum increases.
Binding constants (assuming that an N-OPE dimer is formed in each case) can be estimated from a determination of the individual absorbances of the two species following a treatment for a similar two-state system developed by Pasternack and co-workers. See, e.g., Pasternack, R. F.; Goldsmith, J. I.; Szep, S.; Gibbs, E. J. Biophys. J. 1998, 75, 1024-1031, which is incorporated by reference. […] [N-OPE-2]=1.5×10^−5 and [CMC]=0-4.4×10^−5 M. The induced CD observed for N-OPE-2 and CMA is strong and biphasic with a change in phase of the induced CD exactly corresponding to the maximum in the J-dimer absorption. […] See, e.g., Kim, O. K.; Je, J.; Jernigan, G.; Buckley, L.; Whitten, D. J. Am. Chem. Soc. 2006, 128, 510-516, which is incorporated by reference. A similar structure may thus be reasonable for the CMA:N-OPE-2 complex. For the N-OPE-2 complex with CMC, the induced CD spectrum is much weaker and contains two bands corresponding to different absorptions: the longer wavelength band (negative) overlaps the transition we attribute to a J-dimer of N-OPE-2 while the shorter wavelength band (positive) overlaps the monomer of N-OPE-2.
Self-assembly is not limited solely to the non-symmetrical N-OPE compounds. […] Similar spectral changes, but with less pronounced red shifts, are observed over the same concentration range for S-OPE-1 (H) and N-OPE-1. […] The changes that occur for S-OPE-1 (H), N-OPE-1 and S-OPE-1 (COOEt) (sharp, red shifted absorption spectra, isosbestic points maintained throughout the CMC addition and red-shifted fluorescence) are consistent with an extension of effective conjugation for the oligomers on the carboxylate decorated surface of the CMC.

[2] = Self-assembly / complex formation on carboxymethylamylose (absorption, fluorescence); details: aqueous solution
DNA = experiment: Circular dichroism of OPE bound to DNA; details: ds or ss DNA

Compound	change of fluorescence quantum efficiency of oligomer:CMC complex [1]	increase in fluorescence upon addition of CMC [1]	changes in absorption and fluorescence when CMC is added [1]	aggregate formation upon addition of CMA [2]	CD signal when bound to DNA (DNA)	fluorescence increase of CMA complex compared to water [2]
CCOC(=O)c1ccc(C#Cc2cc(OCCC[N+](C)(C)C)c(C#Cc3ccccc3)cc2OCCC[N+](C)(C)C)cc1.[Cl-].[Cl-] [N-OPE-1]	strong increase	at least three-fold	striking changes	does not generate a spectrally observable aggregate		
CCOC(=O)c1ccc(C#Cc2cc(OCCC[N+](C)(C)C)c(C#Cc3ccc(C#Cc4cc(OCCC[N+](C)(C)C)c(C#Cc5ccccc5)cc4OCCC[N+](C)(C)C)cc3)cc2OCCC[N+](C)(C)C)cc1.[Cl-].[Cl-].[Cl-].[Cl-] [N-OPE-2]		at least 14 fold			detectable CD signal	more than ten-fold
CCOC(=O)c1ccc(C#Cc2cc(OCCC[N+](C)(C)C)c(C#Cc3ccc(C(=O)OCC)cc3)cc2OCCC[N+](C)(C)C)cc1.[Cl-].[Cl-] [S-OPE-1 (COOEt)]	more than 18 fold		striking changes		detectable CD signal	
C[N+](C)(C)CCCOc1cc(C#Cc2ccc(C(=O)[O-])cc2)c(OCCC[N+](C)(C)C)cc1C#Cc1ccc(C(=O)[O-])cc1 [S-OPE-1 (COO—)]			no changes observed			
C[N+](C)(C)CCCOc1cc(C#Cc2ccccc2)c(OCCC[N+](C)(C)C)cc1C#Cc1ccccc1.[Cl-].[Cl-] [S-OPE-1 (H)]	very little change		striking changes			
